{"source": "paper PMC9017343", "data": [{"target": "SARS-CoV S trimer (ectodomain) (SARS-CoV) (UniProt P59594)", "assay": "SPR", "units": {"Kd": "pM", "koff": "s⁻¹"}, "values": [{"substance": "ADG-2", "Kd": 1.41, "koff": "1.73e-06"}, {"substance": "CR3022", "Kd": 0.759, "koff": "6.52e-08"}, {"substance": "DH1047", "Kd": 1.11, "koff": "1.69e-07"}, {"substance": "REGN10985", "Kd": 4650, "koff": 0.0019}, {"substance": "S2H97", "Kd": 70.6, "koff": "3.67e-05"}, {"substance": "S2X259", "Kd": 3.65, "koff": "8.78e-07"}]}]}
